Anti-infective test results gathered from many reports (values: NIAID ChemDB through PubChem).

All rows: tests in culture; organism: Mycobacterium avium; endpoint: MIC

An empty or dashed field is not shown. Rows are shuffled and stem from different studies.

| smiles | strain or isolate | method | conditions | value |
|---|---|---|---|---|
| CCCCCCOc1ccccc1NC(=O)OCCN1CCCCCC1 | MY330/88 | - | - | 32 µM |
| C=CCS/C(N)=N/NC(=O)c1ccc(Cl)cc1 | ATCC 19421 | - | - | >100 µg/mL |
| Cc1c(CN2CCSCC2)cc(-c2ccccc2)n1-c1ccccc1Cl | 103317 | - | - | >16 µg/mL |
| CC(=O)Oc1cc(Cl)ccc1C(=O)Nc1ccc(C(F)(F)F)cc1 | MY330/88 | - | - | 4 µg/mL |
| N/C(=N\NC(=O)c1ccc(Cl)cc1Cl)SCc1cccc(Cl)c1 | ATCC 19421 | - | - | >100 µg/mL |
| CCCCOc1ccc(NC(=O)OCCN2CCCCC2)cc1 | MY330/88 | - | - | 125 µM |
| c1ccc(-n2nnnc2SSc2nnnn2-c2ccccc2)cc1 | 80/72 | - | - | 1000 µM |
| O=C(NCc1ccccc1)c1cc(Br)cc(Br)c1O | ATCC 25291 | - | 21 d | 125 µM |
| COc1cc(C(=O)N/N=C(\N)SC)cc(OC)c1OC | ATCC 19421 | - | - | >100 µg/mL |
| C[C@H](NC(=O)OCc1ccccc1)c1cnc(-c2ccc([N+](=O)[O-])cc2)[nH]1 | MY330/88 | - | 14 d | >125 µM |
| CC(=O)Oc1c(Cl)cccc1C(=O)Nc1ccc(C(F)(F)F)cc1 | MY330/88 | - | - | 8 µg/mL |
| O=C(NCc1ccccn1)c1cc(F)ccc1O | ATCC 25291 | - | 14 d | 500 µM |
| Cc1c(CN2CCSCC2)cc(-c2ccccc2)n1-c1ccccc1 | 103317 | - | - | >16 µg/mL |
| O=C(NCc1cccnc1)c1cc(Br)cc(Br)c1O | ATCC 25291 | - | 21 d | 1000 µM |
| COc1cc(/C=N/N=C(\N)c2ccncc2)cc(OC)c1 | INH resistant | - | - | 256 µg/mL |
| CCCCCOc1ccccc1NC(=O)OCCN(C)C | MY330/88 | - | - | 32 µM |
| Cc1ccc(C)c(/C=N/N=C(\N)c2ccncc2)c1 | INH resistant | - | - | 256 µg/mL |
| CC(=O)Oc1cc(Cl)ccc1C(=O)N(C(C)=O)c1ccc(Br)cc1 | MY330/88 | - | - | 8 µg/mL |
| CCCOc1ccc(NC(=O)OCCN2CCCC2)cc1 | MY330/88 | - | - | 125 µM |
| Cc1c(CN2CCSCC2)cc(-c2ccccc2)n1-c1ccccc1F | 103317 | - | - | >16 µg/mL |
| C[C@H](NC(=O)OCc1ccccc1)c1cnc(-c2ccccc2)[nH]1 | MY330/88 | - | 21 d | 250 µM |
| COc1ccc(C(=O)N/N=C(\N)SC)cc1 | ATCC 19421 | - | - | >100 µg/mL |
| CC(C)[C@H](NC(=O)OCc1ccccc1)c1cnc(-c2ccccc2)[nH]1 | MY330/88 | - | 21 d | >500 µM |
| Cc1c(CN2CCN(C)CC2)cc(-c2ccccc2)n1-c1ccccc1 | 103317 | - | - | 32 µg/mL |
| N/C(=N\NC(=O)c1ccc(Cl)cc1)SCc1cccc(Cl)c1 | ATCC 19421 | - | - | >100 µg/mL |
| Cc1ccc(-n2nnnc2SSc2nnnn2-c2ccc(C)c(C)c2)cc1C | 80/72 | - | - | 1000 µM |
| N/C(=N\N=C\c1ccc(Br)cc1)c1ccncc1 | INH resistant | - | - | 128 µg/mL |
| COc1ccc(-n2nnnc2SSc2nnnn2-c2ccc(OC)cc2)cc1 | 80/72 | - | - | >1000 µM |
| Cc1c(CN2CCN(C)CC2)cc(-c2ccccc2)n1-c1ccccc1F | 103317 | - | - | >16 µg/mL |
| CC1(C)CC[C@]2(C(=O)O)CC[C@]3(C)C(CC[C@@H]4[C@@]5(C)C[C@H](O)CC(C)(C)[C@@H]5CC[C@]43C)[C@@H]2C1 | - | resazurin | - | 100 µg/mL |
| COc1cccc(/C=N/N=C(\N)c2ccncc2)c1OC | INH resistant | - | - | 256 µg/mL |
| Cc1c(CN2CCN(C)CC2)cc(-c2ccccc2)n1-c1cccc2ccccc12 | 103317 | - | - | >16 µg/mL |
| O=C(OCc1ccccc1)N1CCC[C@H]1c1cnc(-c2ccc([N+](=O)[O-])cc2)[nH]1 | MY330/88 | - | 21 d | >250 µM |
| N/C(=N\N=C\c1cccc(Br)c1)c1ccncc1 | INH resistant | - | - | 64 µg/mL |
| CC(C)[C@H](NC(=O)OCc1ccccc1)c1cnc(-c2ccc([N+](=O)[O-])cc2)[nH]1 | MY330/88 | - | 14 d | >125 µM |
| Cc1c(CN2CCN(C)CC2)cc(-c2ccccc2)n1-c1ccc(F)cc1 | 103317 | - | - | 0.4 µg/mL |
| N/C(=N\N=C\c1ccc(Cl)c(Cl)c1)c1ccncc1 | INH resistant | - | - | 256 µg/mL |
| COc1cccc(C(=O)NCc2cccnc2)c1O | ATCC 25291 | - | 21 d | 1000 µM |
| N/C(=N\N=C\c1ccc(Cl)c([N+](=O)[O-])c1)c1ccncc1 | INH resistant | - | - | >256 µg/mL |
| CC(=O)Oc1c(Cl)cccc1C(=O)Nc1cccc(Cl)c1 | MY330/88 | - | - | 16 µg/mL |
| O=C(NCc1ccccn1)c1cc(Cl)ccc1O | ATCC 25291 | - | 21 d | 250 µM |
| Cc1c(CN2CCSCC2)cc(-c2ccccc2)n1-c1ccc(F)cc1 | 103317 | - | - | 2 µg/mL |

Again, the opening 5 rows:

smiles	strain or isolate	method	conditions	value
CCCCCCOc1ccccc1NC(=O)OCCN1CCCCCC1	MY330/88	-	-	32 µM
C=CCS/C(N)=N/NC(=O)c1ccc(Cl)cc1	ATCC 19421	-	-	>100 µg/mL
Cc1c(CN2CCSCC2)cc(-c2ccccc2)n1-c1ccccc1Cl	103317	-	-	>16 µg/mL
CC(=O)Oc1cc(Cl)ccc1C(=O)Nc1ccc(C(F)(F)F)cc1	MY330/88	-	-	4 µg/mL
N/C(=N\NC(=O)c1ccc(Cl)cc1Cl)SCc1cccc(Cl)c1	ATCC 19421	-	-	>100 µg/mL